Results: patent publication US20240269228A1 (priority 2021, published 2024)
Some compounds may have been tested in ways that are not shown here.

The chains behind the UniProt entries cited, without tags or fusion partners. Residues count along the entry.
UniProt P37288, whole entry: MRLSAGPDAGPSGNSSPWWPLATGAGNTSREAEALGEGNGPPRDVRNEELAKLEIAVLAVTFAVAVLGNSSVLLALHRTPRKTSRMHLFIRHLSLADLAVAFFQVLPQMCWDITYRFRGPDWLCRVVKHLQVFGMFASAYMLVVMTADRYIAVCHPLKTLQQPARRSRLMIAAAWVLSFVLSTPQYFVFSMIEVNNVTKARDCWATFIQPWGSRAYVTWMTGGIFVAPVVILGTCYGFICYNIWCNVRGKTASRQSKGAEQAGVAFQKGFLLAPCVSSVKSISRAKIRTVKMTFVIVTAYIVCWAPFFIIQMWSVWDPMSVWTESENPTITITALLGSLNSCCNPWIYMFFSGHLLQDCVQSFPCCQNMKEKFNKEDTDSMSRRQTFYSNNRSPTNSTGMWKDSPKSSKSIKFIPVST
UniProt P25021, whole entry: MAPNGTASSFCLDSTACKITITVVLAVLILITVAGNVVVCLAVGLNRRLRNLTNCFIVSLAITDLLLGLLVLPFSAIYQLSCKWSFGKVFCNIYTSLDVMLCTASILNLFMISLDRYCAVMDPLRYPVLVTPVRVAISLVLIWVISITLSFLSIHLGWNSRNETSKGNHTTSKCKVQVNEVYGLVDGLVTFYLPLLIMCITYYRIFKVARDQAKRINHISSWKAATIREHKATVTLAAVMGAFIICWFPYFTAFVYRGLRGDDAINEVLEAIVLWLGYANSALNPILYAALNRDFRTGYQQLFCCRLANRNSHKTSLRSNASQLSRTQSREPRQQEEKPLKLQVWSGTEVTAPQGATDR
UniProt P11229, whole entry: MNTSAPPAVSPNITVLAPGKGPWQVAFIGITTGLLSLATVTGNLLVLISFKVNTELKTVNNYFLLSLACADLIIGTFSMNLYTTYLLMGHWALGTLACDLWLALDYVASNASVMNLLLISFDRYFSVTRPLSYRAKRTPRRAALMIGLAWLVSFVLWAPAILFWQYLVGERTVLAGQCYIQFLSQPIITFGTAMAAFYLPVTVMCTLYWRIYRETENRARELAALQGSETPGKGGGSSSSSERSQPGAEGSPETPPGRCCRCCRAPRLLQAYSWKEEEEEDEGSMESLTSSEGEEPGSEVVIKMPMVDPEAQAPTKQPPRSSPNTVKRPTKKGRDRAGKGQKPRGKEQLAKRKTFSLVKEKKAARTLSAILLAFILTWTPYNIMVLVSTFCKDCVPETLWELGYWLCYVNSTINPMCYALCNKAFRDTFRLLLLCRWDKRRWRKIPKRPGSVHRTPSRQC
UniProt P23385, 19-1199 limits assumed: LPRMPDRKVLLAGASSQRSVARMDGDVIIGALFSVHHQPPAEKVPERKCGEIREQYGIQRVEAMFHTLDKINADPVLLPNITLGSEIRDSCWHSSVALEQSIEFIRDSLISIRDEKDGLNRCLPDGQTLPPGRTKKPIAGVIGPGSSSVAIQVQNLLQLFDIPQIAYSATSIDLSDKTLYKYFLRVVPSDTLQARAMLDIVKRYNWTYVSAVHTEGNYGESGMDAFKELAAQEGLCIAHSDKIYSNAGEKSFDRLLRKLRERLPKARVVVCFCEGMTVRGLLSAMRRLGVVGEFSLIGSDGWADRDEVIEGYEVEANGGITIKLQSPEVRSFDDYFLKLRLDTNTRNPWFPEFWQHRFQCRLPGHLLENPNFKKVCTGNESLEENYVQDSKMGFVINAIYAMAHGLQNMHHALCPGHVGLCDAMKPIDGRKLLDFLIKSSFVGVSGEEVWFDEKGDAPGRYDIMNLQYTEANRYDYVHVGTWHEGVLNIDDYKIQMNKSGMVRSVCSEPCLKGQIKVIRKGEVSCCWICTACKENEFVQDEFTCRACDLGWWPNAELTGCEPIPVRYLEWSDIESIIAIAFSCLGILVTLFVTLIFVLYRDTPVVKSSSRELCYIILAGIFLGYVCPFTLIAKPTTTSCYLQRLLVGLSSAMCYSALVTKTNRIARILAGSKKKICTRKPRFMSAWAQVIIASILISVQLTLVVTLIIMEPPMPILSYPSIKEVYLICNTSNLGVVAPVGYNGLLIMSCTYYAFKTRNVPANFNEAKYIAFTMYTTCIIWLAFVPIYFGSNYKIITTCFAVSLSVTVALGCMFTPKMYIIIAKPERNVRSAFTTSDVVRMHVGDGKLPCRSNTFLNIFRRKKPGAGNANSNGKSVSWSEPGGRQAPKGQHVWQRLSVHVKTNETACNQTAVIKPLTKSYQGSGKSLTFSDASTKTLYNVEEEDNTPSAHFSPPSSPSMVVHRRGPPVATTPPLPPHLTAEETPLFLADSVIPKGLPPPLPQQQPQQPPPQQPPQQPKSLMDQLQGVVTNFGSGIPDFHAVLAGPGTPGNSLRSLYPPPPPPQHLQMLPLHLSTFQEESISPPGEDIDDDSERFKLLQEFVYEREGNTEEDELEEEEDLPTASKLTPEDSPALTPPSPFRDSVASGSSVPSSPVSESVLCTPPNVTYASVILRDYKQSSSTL
UniProt P17787, 26-502 limits assumed: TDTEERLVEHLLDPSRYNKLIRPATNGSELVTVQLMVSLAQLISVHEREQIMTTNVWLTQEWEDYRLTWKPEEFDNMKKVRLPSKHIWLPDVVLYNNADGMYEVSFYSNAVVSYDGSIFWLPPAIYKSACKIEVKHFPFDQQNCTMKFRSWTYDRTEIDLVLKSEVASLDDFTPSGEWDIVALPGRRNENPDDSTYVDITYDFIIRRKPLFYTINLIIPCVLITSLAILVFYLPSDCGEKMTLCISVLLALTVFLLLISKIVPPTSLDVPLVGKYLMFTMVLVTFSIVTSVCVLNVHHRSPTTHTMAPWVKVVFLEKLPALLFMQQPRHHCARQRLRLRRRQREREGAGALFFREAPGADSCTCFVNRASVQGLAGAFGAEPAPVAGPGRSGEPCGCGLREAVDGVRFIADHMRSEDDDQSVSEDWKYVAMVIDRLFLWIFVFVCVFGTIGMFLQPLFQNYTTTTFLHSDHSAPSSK
UniProt P02708, 21-457 limits assumed: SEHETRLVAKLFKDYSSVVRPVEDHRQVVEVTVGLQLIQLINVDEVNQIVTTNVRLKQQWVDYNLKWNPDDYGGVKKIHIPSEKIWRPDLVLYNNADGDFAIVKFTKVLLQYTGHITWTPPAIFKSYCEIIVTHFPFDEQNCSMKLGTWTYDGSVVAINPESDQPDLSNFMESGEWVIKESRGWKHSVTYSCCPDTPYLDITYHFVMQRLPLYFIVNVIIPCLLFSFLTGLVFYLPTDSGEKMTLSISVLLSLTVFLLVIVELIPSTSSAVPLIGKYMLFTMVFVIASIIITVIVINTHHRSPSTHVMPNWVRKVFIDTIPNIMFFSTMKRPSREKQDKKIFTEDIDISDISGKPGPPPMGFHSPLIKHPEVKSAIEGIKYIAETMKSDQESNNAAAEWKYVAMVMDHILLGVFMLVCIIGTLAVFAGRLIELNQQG
UniProt P35372, whole entry: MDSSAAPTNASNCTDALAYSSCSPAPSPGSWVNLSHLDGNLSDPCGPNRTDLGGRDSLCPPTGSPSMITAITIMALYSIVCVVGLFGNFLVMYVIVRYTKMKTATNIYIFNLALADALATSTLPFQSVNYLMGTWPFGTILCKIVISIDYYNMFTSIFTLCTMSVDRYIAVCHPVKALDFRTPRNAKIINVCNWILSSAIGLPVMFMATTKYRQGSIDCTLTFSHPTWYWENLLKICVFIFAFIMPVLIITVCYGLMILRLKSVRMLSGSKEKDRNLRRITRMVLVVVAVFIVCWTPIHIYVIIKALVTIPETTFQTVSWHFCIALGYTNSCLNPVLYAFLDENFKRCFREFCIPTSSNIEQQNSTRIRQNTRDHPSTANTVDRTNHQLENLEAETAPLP
UniProt P32241, 31-457 limits assumed: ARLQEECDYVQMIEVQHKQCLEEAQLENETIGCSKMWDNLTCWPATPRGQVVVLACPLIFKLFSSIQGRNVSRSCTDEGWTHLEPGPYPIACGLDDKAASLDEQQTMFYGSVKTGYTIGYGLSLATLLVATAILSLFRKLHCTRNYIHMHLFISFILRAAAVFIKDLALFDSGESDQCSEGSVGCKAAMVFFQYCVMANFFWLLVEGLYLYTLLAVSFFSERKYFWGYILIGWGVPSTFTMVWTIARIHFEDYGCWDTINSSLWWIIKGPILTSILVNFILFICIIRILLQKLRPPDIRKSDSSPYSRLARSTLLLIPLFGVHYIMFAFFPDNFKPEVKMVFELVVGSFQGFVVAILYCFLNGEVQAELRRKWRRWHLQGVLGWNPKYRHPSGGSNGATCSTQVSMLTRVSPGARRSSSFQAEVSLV
UniProt Q9Y5N1, whole entry: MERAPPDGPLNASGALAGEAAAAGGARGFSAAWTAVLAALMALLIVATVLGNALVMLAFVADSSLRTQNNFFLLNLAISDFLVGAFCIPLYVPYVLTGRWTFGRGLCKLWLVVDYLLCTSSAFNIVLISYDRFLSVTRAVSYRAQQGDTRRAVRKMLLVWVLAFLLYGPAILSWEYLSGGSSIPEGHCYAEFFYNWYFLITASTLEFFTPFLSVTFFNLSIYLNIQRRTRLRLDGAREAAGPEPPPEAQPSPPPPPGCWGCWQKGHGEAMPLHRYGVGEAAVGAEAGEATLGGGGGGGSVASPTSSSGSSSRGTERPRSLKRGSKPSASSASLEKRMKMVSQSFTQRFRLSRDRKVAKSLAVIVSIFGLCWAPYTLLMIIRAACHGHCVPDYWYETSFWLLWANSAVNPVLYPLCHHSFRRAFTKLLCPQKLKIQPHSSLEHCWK
UniProt P50052, whole entry: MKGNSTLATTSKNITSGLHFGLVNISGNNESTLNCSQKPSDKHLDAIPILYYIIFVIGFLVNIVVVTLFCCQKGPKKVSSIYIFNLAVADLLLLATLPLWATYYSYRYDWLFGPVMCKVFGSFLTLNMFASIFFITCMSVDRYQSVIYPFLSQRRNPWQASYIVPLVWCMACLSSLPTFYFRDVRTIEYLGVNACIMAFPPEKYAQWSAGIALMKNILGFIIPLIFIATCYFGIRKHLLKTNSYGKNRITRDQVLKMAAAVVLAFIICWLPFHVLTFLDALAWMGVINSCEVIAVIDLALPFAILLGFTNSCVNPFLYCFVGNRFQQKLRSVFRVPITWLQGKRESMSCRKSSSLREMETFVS
UniProt Q9UBS5, 1-844 isoform 2: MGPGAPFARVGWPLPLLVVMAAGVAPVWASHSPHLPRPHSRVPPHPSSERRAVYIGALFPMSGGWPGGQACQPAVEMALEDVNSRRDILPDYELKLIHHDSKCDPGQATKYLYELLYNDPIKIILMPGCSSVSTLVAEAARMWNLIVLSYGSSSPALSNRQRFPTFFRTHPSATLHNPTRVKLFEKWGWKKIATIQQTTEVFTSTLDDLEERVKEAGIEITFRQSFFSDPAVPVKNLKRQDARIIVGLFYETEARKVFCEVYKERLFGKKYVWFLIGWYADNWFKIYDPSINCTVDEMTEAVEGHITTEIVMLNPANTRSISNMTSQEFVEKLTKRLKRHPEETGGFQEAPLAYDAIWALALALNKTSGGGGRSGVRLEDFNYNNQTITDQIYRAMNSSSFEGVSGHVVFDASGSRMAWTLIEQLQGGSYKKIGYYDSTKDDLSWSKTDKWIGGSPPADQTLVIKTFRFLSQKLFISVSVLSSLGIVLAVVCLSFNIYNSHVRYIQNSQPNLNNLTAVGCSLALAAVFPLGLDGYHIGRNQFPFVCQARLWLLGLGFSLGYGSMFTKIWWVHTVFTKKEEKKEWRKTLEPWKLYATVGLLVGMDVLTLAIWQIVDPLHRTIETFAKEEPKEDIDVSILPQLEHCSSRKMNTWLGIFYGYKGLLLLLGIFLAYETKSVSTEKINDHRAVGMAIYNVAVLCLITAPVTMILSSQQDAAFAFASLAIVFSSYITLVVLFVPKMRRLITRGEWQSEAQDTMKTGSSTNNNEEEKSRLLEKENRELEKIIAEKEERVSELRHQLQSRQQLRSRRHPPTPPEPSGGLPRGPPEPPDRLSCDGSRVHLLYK
UniProt P08588, whole entry: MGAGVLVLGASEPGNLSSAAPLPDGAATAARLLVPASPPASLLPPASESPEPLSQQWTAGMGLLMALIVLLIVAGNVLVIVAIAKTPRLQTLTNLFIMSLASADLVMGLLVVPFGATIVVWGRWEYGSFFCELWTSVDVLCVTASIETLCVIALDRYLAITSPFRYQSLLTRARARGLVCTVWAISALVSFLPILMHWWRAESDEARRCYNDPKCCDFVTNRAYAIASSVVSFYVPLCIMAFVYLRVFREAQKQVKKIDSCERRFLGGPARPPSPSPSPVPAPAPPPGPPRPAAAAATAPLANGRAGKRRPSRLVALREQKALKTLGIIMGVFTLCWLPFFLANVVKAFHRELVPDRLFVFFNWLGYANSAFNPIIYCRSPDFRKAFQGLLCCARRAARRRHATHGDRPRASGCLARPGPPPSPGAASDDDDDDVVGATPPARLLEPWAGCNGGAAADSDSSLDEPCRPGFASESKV

Legend:
Assay in all cases: Radioligand binding assay (Eurofins Cerep)
[1] = test system: glycine (strychnine-sensitive); details: 10 μM; radioligand [^3H] strychnine
Ca^2+ channel (N type) = Ca^2+ channel (N type) (Rattus norvegicus, UniProt Q02294); details: 10 μM, radioligand [^125I]ω-conotoxin GVIA
Vasopressin V1a = Vasopressin V1a (Homo sapiens, UniProt P37288); details: 10 μM; radioligand [^125I]AVP
Histamine H2 = Histamine H2 (Homo sapiens, UniProt P25021); details: 10 μM; radioligand [^125I]APT
Muscarinic M1 = Muscarinic M1 (Homo sapiens, UniProt P11229); details: 10 μM; radioligand [^3H] pirenzepine
Muscarinic M3 = Muscarinic M3 (Homo sapiens, UniProt P20309); details: 10 μM; radioligand [^3H]4-DAMP
Neurokinin NK1 = Neurokinin NK1 (Homo sapiens, UniProt P25103); details: 10 μM; radioligand [^125I]substance P
Vasopressin V1b = Vasopressin V1b (Homo sapiens, UniProt P47901); details: 10 μM; radioligand [^125I]AVP
Nicotinic neuronal α7 = Nicotinic neuronal α7 (Homo sapiens, UniProt P36544); details: 10 μM; radioligand [^125I]α-bungarotoxin
Dopamine D4.4 = Dopamine D4.4 (Homo sapiens, UniProt P21917); details: 10 μM; radioligand [^3H] methyl-spiperone
[2] = test system: Glutamate Phencyclidine PCP site; details: 10 μM; radioligand [^3H]TCP; rat
[3] = biological target: Metabotropic Glutamate receptor 1 (Rattus norvegicus, UniProt P23385); details: 10 μM, radioligand [^3H] Quisqualate
Oxytocin = Oxytocin (Homo sapiens, UniProt P30559); details: 10 μM; radioligand [^3H]oxytocin
Nicotinic neuronal α4β2 = Nicotinic neuronal α4β2 (Homo sapiens, UniProt P17787+P43681); details: 10 μM; radioligand [^3H]cytisine
Galanin GAL2 = Galanin GAL2 (Homo sapiens, UniProt O43603); details: 10 μM; radioligand [^125I]galanin
Nicotinic muscle-type = Nicotinic muscle-type (Homo sapiens, UniProt P02708+P07510+Q07001); details: 10 μM; radioligand [^125I]α-bungarotoxin
Potassium channel SKCa = details: 10 μM; radioligand [^125I]apamin; rat
Galanin GAL1 (h) = Galanin GAL1 (h) (Homo sapiens, UniProt P47211); details: 10 μM; radioligand [^125I]galanin
Opioid μ (MOP) = Opioid μ (MOP) (Homo sapiens, UniProt P35372); details: 10 μM; radioligand [^3H]DAMGO
Adenosine A3 = Adenosine A3 (Homo sapiens, UniProt P0DMS8); details: 10 μM; radioligand [^125I]AB-MECA
[4] = biological target: Vasoactive intestinal peptide 1 (VPAC1) (Homo sapiens, UniProt P32241); details: 10 μM; radioligand [^125I]VIP
Histamine H3 = Histamine H3 (Homo sapiens, UniProt Q9Y5N1); details: 10 μM; radioligand [^3H] N^α-Me-histamine
Adenosine A2B = Adenosine A2B (Homo sapiens, UniProt P29275); details: 10 μM; radioligand [^3H]CPX
Angiotensin AT2 = Angiotensin AT2 (Homo sapiens, UniProt P50052); details: 10 μM; radioligand [^125I]CGP 42112A
Glutamate NMDA site = details: 10 μM; radioligand [^3H] CGP 39653; rat
[5] = biological target: glycine (strychnine-insensitive) (Rattus norvegicus, UniProt P35439); details: 10 μM, radioligand [^3H]MDL 105,519
Benzodiazepine (central) = details: 10 μM; radioligand [^3H]flunitrazepam; rat
[6] = biological target: γ-aminobutyric acid GABAB(1b) (Homo sapiens, UniProt Q9UBS5); details: 10 μM; radioligand [^3H]CGP 54626
β1 adrenergic = β1 adrenergic (Homo sapiens, UniProt P08588); details: 10 μM; radioligand [^3H](−)CGP12177

C[C@@H](O)[C@@H]1NC(=O)[C@H]2NC(=O)[C@@H](NC(=O)CN)CSSC[C@H](NC(=O)[C@H](CCCNC(=N)N)NC(=O)[C@@H]3CCCN3C(=O)[C@H](CC(=O)O)NC1=O)C(=O)N[C@@H](CCCNC(=N)N)C(=O)N[C@@H](Cc1ccc(O)c(I)c1)C(=O)N[C@@H](CCC(N)=O)C(=O)N[C@H](C(=O)N[C@H](CC(=O)N[C@@H](CCCNC(=N)N)C(=O)O)Cc1ccc(O)cc1)CSSC2(C)C
Inhibition [%] [1]: 22.4%
Inhibition [%] (Ca^2+ channel (N type)): −7.3%
Inhibition [%] (Vasopressin V1a): 4.2%
Inhibition [%] (Histamine H2): −6.7%
Inhibition [%] (Muscarinic M1): 7.6%
Inhibition [%] (Muscarinic M3): −2.0%
Inhibition [%] (Neurokinin NK1): −7.5%
Inhibition [%] (Vasopressin V1b): −6.4%
Inhibition [%] (Nicotinic neuronal α7): 54.3%
Inhibition [%] (Dopamine D4.4): −4.8%
Inhibition [%] [2]: −6.0%
Inhibition [%] [3]: −4.0%
Inhibition [%] (Oxytocin): 13.1%
Inhibition [%] (Nicotinic neuronal α4β2): −18.4%
Inhibition [%] (Galanin GAL2): −4.7%
Inhibition [%] (Nicotinic muscle-type): −42.3%
Inhibition [%] (Potassium channel SKCa): 14.6%
Inhibition [%] (Galanin GAL1 (h)): −14.2%
Inhibition [%] (Opioid μ (MOP)): 14.6%
Inhibition [%] (Adenosine A3): 17%
Inhibition [%] [4]: 3.4%
Inhibition [%] (Histamine H3): 24.1%
Inhibition [%] (Adenosine A2B): 4%
Inhibition [%] (Angiotensin AT2): 17.8%
Inhibition [%] (Glutamate NMDA site): −0.1%
Inhibition [%] [5]: 14.9%
Inhibition [%] (Benzodiazepine (central)): −6.4%
Inhibition [%] [6]: −6.4%
Inhibition [%] (β1 adrenergic): 19.5%
